Results of unrelated studies side by side (data: NIAID ChemDB).

Common to all: growth or infection tests; agent: Candida albicans

MIC50, MIC90 and the like: level of inhibition, or share of isolates inhibited. Blank or dashed fields: not listed here. Two numbers with a dash give a range or band. Conditions beyond the fields shown may differ between rows. ECn is the concentration giving n% inhibition of infection, replication or growth.

{"smiles": "O=C1c2ccccc2C(=O)C2CC(O)OCC12", "method": "broth dilution", "read-out": "MIC", "strain": "ATCC 18804", "value": "340.3 µM"}
{"smiles": "CCCCCCCCCCCCCCCCCC1=NCCCC1", "read-out": "MIC", "strain": "ATCC 90028", "value": "20 µg/mL"}
{"smiles": "CCCCCCCCCCCCCCn1cc[n+](COCCCOC[n+]2ccn(CCCCCCCCCCCCCC)c2)c1", "method": "agar diffusion", "read-out": "MIC100", "strain": "ATCC 90028", "value": "14 µM"}
{"smiles": "O=[N+]([O-])c1ccccc1NC(=S)Nc1nc(N2CCN(c3ccccc3)CC2)c2ccccc2n1", "method": "agar / visual reading", "read-out": "MIC", "strain": "MTCC 183", "value": "50 µg/mL"}
{"smiles": "COc1cc(NC(C)CCCNC(=O)CCC(NC(=O)[C@@H](N)CCCCN)C(=O)O)c2nc(C(C)(C)C)ccc2c1", "method": "broth dilution", "read-out": "EC50", "value": ">20 µg/mL"}
{"smiles": "Cc1cc(Cl)[nH]c2ccc3c(=O)c(C(=O)NN=Cc4ccc(Cl)cc4)cnc3c12", "method": "broth dilution", "read-out": "MIC", "value": "500 µg/mL"}
{"smiles": "COc1cc(OC)c2c(ccc3c(O)c(O)c(O)cc32)c1", "read-out": "MIC", "value": "50 µg/mL"}
{"smiles": "COc1ccccc1-c1nc2cc(C)ccc2o1", "read-out": "MIC", "value": "25 µg/mL"}
{"smiles": "C[C@@H](B1OC2CC3CC(C3(C)C)[C@@]2(C)O1)[C@@H](Cc1ccccc1)NC(=O)[C@H](Cc1ccccc1)NC(=O)[C@@H](N)CCCCN", "method": "agar", "read-out": "MIC", "value": "≤500 µg/mL"}
{"smiles": "COCCOCCOCCOCCOCCOCCNC(=O)[C@H]1[C@@H]2C[C@@H](O[C@@H]3O[C@H](C)[C@@H](O)[C@H](N)[C@@H]3O)/C=C/C=C/C=C/C=C/C=C/C=C/C=C/[C@H](C)[C@@H](O)[C@H](C)[C@H](C)OC(=O)C[C@H](O)C[C@H](O)[C@@H](O)CC[C@H](O)C[C@H](O)C[C@](O)(C[C@@H]1O)O2", "read-out": "MIC", "strain": "Isolate 92-824", "value": "3.03 µg/mL"}
{"smiles": "COc1ccc(-c2nc3ccc(C)cc3o2)c(OC)c1", "read-out": "MIC", "value": "25 µg/mL"}
{"smiles": "CC1(C)C2CC3OB(C[C@@H](CCc4ccccc4)NC(=O)[C@@H](N)CCCCN)O[C@]3(C)C1C2", "read-out": "MIC", "value": "≤500 µg/mL"}
{"smiles": "O=C(N/N=C/c1ccc(Cl)cc1)c1ccc(CNc2nc3ccccc3[nH]2)cc1", "method": "broth dilution", "read-out": "MIC", "value": "100 µg/mL"}
{"smiles": "CCCCC(Cn1ccnc1)c1ccc(Br)cc1Br", "read-out": "MIC", "value": "10 µg/mL"}
{"smiles": "O=[N+]([O-])c1cn(CCc2nc(Nc3ccc(Cl)cc3)n[nH]2)cn1", "read-out": "MIC", "value": "500 µg/mL"}
{"smiles": "COc1cc(NC(C)CCCNC(=O)[C@@H](CCCCN)NC(=O)[C@H](N)CCCCN)c2ncccc2c1", "method": "broth dilution", "read-out": "EC50", "value": ">20 µg/mL"}
{"smiles": "CCN1CCN(c2nc(NN=C3SCC(=O)N3c3cccc(Cl)c3)nc3ccccc23)CC1", "method": "agar / visual reading", "read-out": "MIC", "strain": "MTCC 183", "value": "400 µg/mL"}
{"smiles": "C[C@H](N)C(=O)N[C@@H](CB1OC2CC3CC(C3(C)C)[C@@]2(C)O1)Cc1ccccc1", "read-out": "MIC", "value": "≤500 µg/mL"}
{"smiles": "CCCCCCCCn1cc[n+](COCCCCCCOC[n+]2ccn(CCCCCCCC)c2)c1", "method": "agar diffusion", "read-out": "MIC100", "strain": "ATCC 90028", "value": "2 µM"}
{"smiles": "OC(Cn1cncn1)(Cn1cncn1)c1ccc(F)cc1F", "read-out": "MIC", "value": "12.5 µg/mL"}
{"smiles": "COc1cc(NC(C)CCCNC(=O)[C@@H](CCCCN)NC(=O)[C@H](N)CCCCN)c2nc(C(C)(C)C)ccc2c1", "method": "broth dilution", "read-out": "EC50", "value": ">20 µg/mL"}
{"smiles": "CC1(C)C2CC3OB(C[C@@H](Cc4ccccc4)NC(=O)[C@H](Cc4ccccc4)NC(=O)[C@@H](N)Cc4ccccc4)O[C@]3(C)C1C2", "method": "agar", "read-out": "MIC", "value": "≤500 µg/mL"}
{"smiles": "CC1=CC[C@@H]2[C@H](C1)C2(C)C", "read-out": "MLC", "strain": "ATCC 10231", "value": "0.32–0.64 µg/mL"}
{"smiles": "COc1ccc(C(Cn2cncn2)OCc2ccc(Cl)cc2Cl)cc1OC", "read-out": "MIC90", "value": "65 µg/mL"}
{"smiles": "O=C(OC(Cn1ccnc1)c1ccc(F)cc1)c1cccc(C(F)(F)F)c1", "method": "broth dilution", "read-out": "MIC", "value": "46.3 µg/mL"}
{"smiles": "Cc1nc([N+](=O)[O-])cn1CCc1nc(Nc2ccccc2)n[nH]1", "read-out": "MIC", "value": "500 µg/mL"}
{"smiles": "Clc1ccc(C(Cn2ccnc2)OCc2ccc3c(c2)OCO3)c(Cl)c1", "read-out": "MIC90", "value": "10.7 µg/mL"}
{"smiles": "CCN1CCN(c2nc(Nc3ccc(C(=O)/C=C/c4ccccc4O)cc3)nc3ccccc23)CC1", "method": "agar / visual reading", "read-out": "MIC", "strain": "MTCC 183", "value": "200 µg/mL"}
{"smiles": "Clc1ccc(C(Cn2ccnc2)OCc2ccc3ccccc3c2)c(Cl)c1", "read-out": "MIC90", "value": "16.2 µg/mL"}
{"smiles": "CCCCCCCCCCCCCCn1cc[n+](COCCCCOC[n+]2ccn(CCCCCCCCCCCCCC)c2)c1", "method": "agar diffusion", "read-out": "MIC100", "strain": "ATCC 90028", "value": "7 µM"}
{"smiles": "CCCCCCCC(Cn1ccnc1)c1ccc(Cl)cc1", "read-out": "MIC", "value": "10 µg/mL"}
{"smiles": "CN(C)c1ccc(/C=N/NC(=O)c2ccc(CNc3nc4ccccc4[nH]3)cc2)cc1", "method": "broth dilution", "read-out": "MIC", "value": "50 µg/mL"}
{"smiles": "Clc1ccc(C(Cn2cncn2)OCc2ccc3c(c2)OCO3)c(Cl)c1", "read-out": "MIC90", "value": ">100 µg/mL"}
{"smiles": "Cc1ccc(C2C(Cl)C(=O)N2NC(=O)c2cnc3c(ccc4[nH]c(Cl)cc(C)c43)c2=O)cc1", "method": "broth dilution", "read-out": "MIC", "value": "200 µg/mL"}
{"smiles": "Cc1ccc2nc(-c3ccccc3Cl)oc2c1", "read-out": "MIC", "value": "25 µg/mL"}
{"smiles": "Cc1ccc(/C=N/NC(=O)c2ccc(CNc3nc4ccccc4[nH]3)cc2)cc1", "method": "broth dilution", "read-out": "MIC", "value": "100 µg/mL"}
{"smiles": "COc1ccc(COC(Cn2cncn2)c2ccc(Cl)cc2Cl)cc1OC", "read-out": "MIC90", "value": ">100 µg/mL"}
{"smiles": "CC(C)=CCN=C(N)NCCCCCCCCCNCCCCCCCNC(N)=NCC=C(C)C", "read-out": "MIC50", "strain": "ATCC 60193", "value": ">80 µM"}
{"smiles": "c1ccc(Nc2n[nH]c(CCn3cnc4ccccc43)n2)cc1", "read-out": "MIC", "value": "500 µg/mL"}
{"smiles": "COc1cc(NC(C)CCCNC(=O)[C@H](CCCN)NC(=O)[C@@H](N)CCCN)c2nc(C(C)(C)C)ccc2c1", "method": "broth dilution", "read-out": "MIC", "value": ">20 µg/mL"}
{"smiles": "C=CC(C)(O)CCC1C(C)=CC[C@H](Br)[C@@]1(C)CCC=C(C)C", "read-out": "EC50", "strain": "ATCC 10231", "value": ">100 µM"}
{"smiles": "CCCCCCCCCCCCCCCCCCC1=NCCCC1", "read-out": "MIC", "strain": "ATCC 90028", "value": "20 µg/mL"}
{"smiles": "CCN(CC)c1ccc(/C=N/NC(=O)c2ccc(CNc3nc4ccccc4[nH]3)cc2)cc1", "method": "broth dilution", "read-out": "MIC", "value": "100 µg/mL"}
{"smiles": "CC(=O)N1CCN(c2ccc(OC[C@H]3CO[C@](Cn4ccnc4)(c4ccc(Cl)cc4Cl)O3)cc2)CC1", "read-out": "MIC", "value": "500 µg/mL"}
{"smiles": "Cc1ccc2oc(-c3ccccc3[N+](=O)[O-])nc2c1", "read-out": "MIC", "value": "25 µg/mL"}
{"smiles": "COc1cc(O)cc(OC)c1C(=O)/C=C/c1ccccc1", "read-out": "MIC", "value": "50 µg/mL"}
{"smiles": "Clc1ccc(C(Cn2cncn2)OCc2ccc3ccccc3c2)c(Cl)c1", "read-out": "MIC90", "value": ">100 µg/mL"}
{"smiles": "CCCCCCCCCCCCCCn1cc[n+](COCCCCCCOC[n+]2ccn(CCCCCCCCCCCCCC)c2)c1", "method": "agar diffusion", "read-out": "MIC100", "strain": "ATCC 90028", "value": "54 µM"}
{"smiles": "CCCCCC(Cn1ccnc1)c1ccc(Br)cc1", "read-out": "MIC", "value": "100 µg/mL"}
{"smiles": "O=C(N/N=C/c1ccc([N+](=O)[O-])cc1)c1ccc(CNc2nc3ccccc3[nH]2)cc1", "method": "broth dilution", "read-out": "MIC", "value": "25 µg/mL"}
{"smiles": "Cc1ccc2oc(-c3ccccc3Cl)nc2c1", "read-out": "MIC", "value": "25 µg/mL"}
{"smiles": "Cc1cc(Cl)[nH]c2ccc3c(=O)c(C(=O)NN=Cc4ccccc4O)cnc3c12", "method": "broth dilution", "read-out": "MIC", "value": "100 µg/mL"}
{"smiles": "COc1cc(NC(C)CCCNC(=O)[C@@H](CCCN)NC(=O)[C@H](N)CCCN)c2ncccc2c1", "method": "broth dilution", "read-out": "EC50", "value": ">20 µg/mL"}
{"smiles": "CC(C)[C@@H]1CC=CC2C3[C@](C)(O)[C@@H](O)C[C@H](Br)[C@@]3(C)CC[C@@]21CBr", "read-out": "EC50", "strain": "ATCC 10231", "value": ">100 µM"}
{"smiles": "O=C(/C=C/c1ccccc1Cl)c1ccc(C(=O)/C=C/c2ccccc2Cl)cc1", "method": "agar diffusion / agar", "read-out": "MIC", "strain": "ATCC 10231", "value": "200 µg/mL"}
{"smiles": "Clc1ccc(COC(Cn2cncn2)c2cccc3ccccc23)c(Cl)c1", "read-out": "MIC90", "value": ">100 µg/mL"}
{"smiles": "CC(C)N=C(N)c1ccc2nc(-c3ccc4c(c3)Cc3cc(-c5nc6ccc(C(N)=NC(C)C)cc6[nH]5)ccc3-4)[nH]c2c1", "read-out": "MFC", "strain": "Isolate 2370 fluconazole-resistant", "value": "1.56 µg/mL"}
{"smiles": "O=C(/C=C/C=C/C=C/C=C/C=C/C=C/C=C/C(=O)NC1=C(O)CCC1=O)NC1=C(O)CCC1=O", "read-out": "MIC", "strain": "YU-1200", "value": ">200 µg/mL"}
{"smiles": "COc1ccc(/C=N/NC(=O)c2ccc(CNc3nc4ccccc4[nH]3)cc2)cc1", "method": "broth dilution", "read-out": "MIC", "value": "50 µg/mL"}
{"smiles": "COc1cc(NC(C)CCCNC(=O)[C@@H](CCCN=C(N)N)NC(=O)[C@H](N)CCCN=C(N)N)c2nc(C(C)(C)C)ccc2c1", "method": "broth dilution", "read-out": "EC50", "value": ">20 µg/mL"}
{"smiles": "N#Cc1ccc(/C=N/NC(=O)c2ccc(CNc3nc4ccccc4[nH]3)cc2)cc1", "method": "broth dilution", "read-out": "MIC", "value": "25 µg/mL"}
{"smiles": "CCN1CCN(c2nc(Nc3ccc(C(=O)/C=C/c4ccccc4)cc3)nc3ccccc23)CC1", "method": "agar / visual reading", "read-out": "MIC", "strain": "MTCC 183", "value": "100 µg/mL"}
{"smiles": "COc1ccccc1C1C(Cl)C(=O)N1NC(=O)c1cnc2c(ccc3[nH]c(Cl)cc(C)c32)c1=O", "method": "broth dilution", "read-out": "MIC", "value": "250 µg/mL"}
{"smiles": "COc1cc(CCc2ccc(O)cc2)cc(OC)c1OC", "read-out": "MIC", "value": "50 µg/mL"}
{"smiles": "O=[N+]([O-])c1cn(CCc2nc(Nc3ccccc3)n[nH]2)cn1", "read-out": "MIC", "value": "500 µg/mL"}

A second listing of 7 rows from above:

smiles,method,read-out,strain,value
CCCCC(Cn1ccnc1)c1ccc(Br)cc1Br,-,MIC,-,10 µg/mL
Clc1ccc(C(Cn2cncn2)OCc2ccc3ccccc3c2)c(Cl)c1,-,MIC90,-,>100 µg/mL
Cc1cc(Cl)[nH]c2ccc3c(=O)c(C(=O)NN=Cc4ccccc4O)cnc3c12,broth dilution,MIC,-,100 µg/mL
COc1ccccc1-c1nc2cc(C)ccc2o1,-,MIC,-,25 µg/mL
COc1ccc(/C=N/NC(=O)c2ccc(CNc3nc4ccccc4[nH]3)cc2)cc1,broth dilution,MIC,-,50 µg/mL
COc1ccc(-c2nc3ccc(C)cc3o2)c(OC)c1,-,MIC,-,25 µg/mL
CCCCCCCCCCCCCCn1cc[n+](COCCCCCCOC[n+]2ccn(CCCCCCCCCCCCCC)c2)c1,agar diffusion,MIC100,ATCC 90028,54 µM